Tested on: gut microbiome
Assay: Gut microbiome diversity, 16S rRNA sequencing of cecal contents
Type: in vivo, mice
Settings: indomethacin 10 mg/kg/d by gavage for 2 days, inverse Simpson index

COc1ccc2c(c1)c(CC(=O)O)c(C)n2C(=O)c1ccc(Cl)cc1 [indomethacin]
microbial diversity in the colon (gut microbiome): significantly altered microbial diversity | microbial diversity in the colon (gut microbiome) (listed as Indomethacin): alters gut microbiome
